Reference: patent US6051389A, “Enzyme sensor” (Radiometer Medical A/S, priority 1996, dated 2000)
Structures can show the parent of a compound that is named as a salt.

Test system: lactate oxidase
Experiment: Enzyme Stability Test: oxalate as stabilising agent for lactate oxidase in S4932 rinse solution (Example 5)
Type: biochemical, Pediococcus
Protocol: Colorimetric lactate oxidase assay
The formation of H2 O2 is determined in a peroxidase (POD) assay system where a quinonimine dye is formed. The amount of formed quinonimine dye is determined spectrophotometically at 490 nm.
100 μL of Reagent A is added to a well of a microtiterplate (Immunoplate, Nunc, Roskilde, Denmark). The colour reaction is started by adding 100 μL of the Enzyme Solution. Immediately afterwards, the microtiterplate is placed in the plate-holder of a THERMOmax incubator (Molecular Devices, Menlo Park, Calif., USA) pre-set to: 37° C., kinetic mode, lag-time 5 min., reading time 15 min., and automix.
The enzymatic activity of lactate oxidase (and also other enzymes) is decreasing exponentially. Therefore, the half-life period (t1/2) for the enzymatic activity will be independent of the initial concentration, and, thus, t1/2 is an excellent expression for the stability of an enzyme under various conditions.
The enzymatic activity is determined (as described in the Enzyme Activity Test above) for the enzyme composition in question at least four times over a relevant period, e.g. every day for at least four days (day 0 to day 3). t1/2 is then calculated following standard mathematical methods.
A solution of 0.04 U/mL lactate oxidase in S4932 rinse solution (Radiometer Medical A/S, Copenhagen, Denmark) was prepared. Disodium oxalate corresponding to a total concentration of 1, 2, 4, 8, and 16 mM of oxalate was added. The enzymatic activity of the solutions was determined five times over a period of 13 days. The enzymatic stability of these solutions was compared with the enzymatic stability of a solution without oxalate.

For O=C(O)C(=O)O [Oxalate, disodium oxalate], the “t1/2 of the enzymatic activity of lactate oxidase” value (oxalate 1 mM) was 21.0 days, the “t1/2 of the enzymatic activity of lactate oxidase” value (oxalate 2 mM) was 20.2 days and the “t1/2 of the enzymatic activity of lactate oxidase” value (oxalate 4 mM) was 31.2 days. For the same compound, the “t1/2 of the enzymatic activity of lactate oxidase” value (oxalate 8 mM) was 36.5 days, the “t1/2 of the enzymatic activity of lactate oxidase” value (oxalate 16 mM) was 45.6 days and the “stability (quoted as t1/2) versus solution without oxalate” value (oxalate 16 mM, highest concentration) was “tripled”.
